The values below come from the supplement of paper PMC9931576.

Human monoclonal antibodies against the spike receptor-binding domain (heavy:light variable regions). IC50 against pseudoviruses bearing the spike of naturally observed variants; lower = stronger; >10 µg/ml means not reached at the top dose. No active / inactive call. The stated detection limit is 0.0005 µg/ml; values near or below 0.001 µg/ml lie at the floor of the assay.

Assay in all cases: pseudovirus neutralization IC50; higher = weaker neutralization
The target of assay [1] is SARS-CoV-2 Omicron BA.1 spike pseudovirus. The protocol:
(§1)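 Single-round VSV luciferase pseudovirus mixed with antibody dilutions for 1 h and put on Huh-7 cells for about a day; IC50 from the dose curve.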

Assay [2] concerns the target SARS-CoV-2 Omicron BA.2 spike pseudovirus. The protocol: as §1
For assay [3], the target named is SARS-CoV-2 Omicron BA.2.75 spike pseudovirus. The protocol:
as §1

In assay [4] the target is SARS-CoV-2 Omicron BA.2.75.2 spike pseudovirus. The protocol:
as §1

Assay [5] concerns the target SARS-CoV-2 Omicron BA.5 spike pseudovirus. The protocol:
as §1

For assay [6], the target named is SARS-CoV-2 Omicron BM.1.1.1 spike pseudovirus. The protocol:
as §1

For assay [7], the target named is SARS-CoV-2 Omicron BQ.1.1 spike pseudovirus. The protocol: as §1
Assay [8] deals with SARS-CoV-2 Omicron BR.2 spike pseudovirus. The protocol: as §1
Assay [9] addresses SARS-CoV-2 Omicron CA.1 spike pseudovirus. The protocol: as §1
Assay [10] addresses SARS-CoV-2 Omicron XBB spike pseudovirus. The protocol:
as §1

The target in assay [11] is SARS-CoV-2 early D614G spike pseudovirus. The protocol:
as §1

B1: BD56-344 (protein)
chain 1: QVNLLQSGTEVKKPGSSMRVTCKTSGGTTYAISWVRQAPGQGLEWMGRVIPLLGRKNYAEKFQDRVTISADNSAGTAFMVLGSLKPDDTGVYYCVRNEGDSSGVSPMPIIWGQGTKVIVSP
chain 2: FVLTQPSSVSVSPRQTATITCSGDALKKQYVYWHQQKPGQAPVLVISEDTKRPSGIPARFSGSTSGTVVTLTITAVQSEDEADYYCQSADTDATWVFGGGTRLTVL
Consider B1, for which the “pseudovirus neutralization IC50” value is 0.0125 µg/mL in [1]; 0.189 µg/mL in assay [2]; 0.0797 µg/mL in assay [3]; 1.1 µg/mL in assay [4]; more than 10 µg/mL in assay [5]; more than 10 µg/mL in assay [6]. Moreover, the “pseudovirus neutralization IC50” value in assay [7], in assay [8], in assay [9], in assay [10] and in assay [11] was more than 10 µg/mL in each case.

B2: BD57-0395 (protein)
chain 1: QVQLVQSGAEVKKPGASVKVSCKASGYTFTNYYMHWVRQAPGQGLEWMGIINPNGGSTRYAQKFQGRVTMTRDTSTSTVYMELSSLRSEDTAVYYCASRGSGYDFSFYFDYWGQGTLVTVSS
chain 2: QSALTQPASVSGSPGQSISISCTGTSSDVGGYNYVSWYQQHPGKAPKLIIYDVSNRPSGVSNRFSGSKSGNTASLTISGLQAEDEADYYCSSYTSSYTHVVFGGGTKLTVL
Turning to B2, the “pseudovirus neutralization IC50” value is more than 10 µg/mL in assay [1]; more than 10 µg/mL in [2]; more than 10 µg/mL in [3]; more than 10 µg/mL in assay [4]; 1.43 µg/mL in assay [5]; more than 10 µg/mL in [6]. In addition, the “pseudovirus neutralization IC50” value in assay [7], in [8], in assay [9], in [10] and in assay [11] was more than 10 µg/mL in each case.

B3: BD57-0130 (protein)
chain 1: QLQLQESGPGLVKPSETLSLTCTVSGGSISSNNYYWGWIRQPPGKGLEWIGSIYYSGSTYYNPSLKSRVTISVDTSKNQFSLKLSSVTAADTAVYYCARRAAAAGTYQEFSFDYWGQGTLVTVSS
chain 2: QSVLTQPPSVSGAPGQRVTISCTGSSSNIGAGYDVHWYQQLPGTAPKLLIYGNSNRPSGVPDRFSGSKSGTSASLAITGLQAEDEADYYCQSYDSSLSGAVFGGGTKLTVL
In the case of B3, the “pseudovirus neutralization IC50” value is more than 10 µg/mL in [1]; more than 10 µg/mL in assay [2]; 0.328 µg/mL in assay [3]; 0.637 µg/mL in assay [4]; 0.208 µg/mL in assay [5]; 1.29 µg/mL in assay [6]. Moreover, the “pseudovirus neutralization IC50” value in assay [7] was 0.981 µg/mL; in assay [8], 0.783 µg/mL; in assay [9], 0.978 µg/mL; in assay [10], 2.46 µg/mL; in [11], more than 10 µg/mL.

B4: BD57-0298 (protein)
chain 1: QVQLQESGPGLVKPSETLSLTCTVSGDSMGIHYWSWVRQPPGKGLEWVGSVYSSGSTNYNPPLKSRVAISVDTSNNQFSLMLNSVTAADTAVYFCARGYTWYATGGYYMDVWGKGTTVTVSS
chain 2: QSVLTQPPSVSGAPGQRVTISCTGTSSNIGAKYDVHWYRQLPGTAPKLLIYGNNNRPSGVPDRFSGSKSGTAASLAITGLQAEDEADYFCQSYDISLSGSVFGGGTKLTVL
With B4, the “pseudovirus neutralization IC50” value in assay [1] was more than 10 µg/mL; in assay [2] it was more than 10 µg/mL; in [3], more than 10 µg/mL; in assay [4] it was more than 10 µg/mL; in assay [5], 0.0864 µg/mL; in assay [6], more than 10 µg/mL. Also, the “pseudovirus neutralization IC50” value in assay [7], in assay [8], in [9], in assay [10] and in [11] was more than 10 µg/mL each time.

B5: BD57-0370 (protein)
chain 1: QLQLQESGPGLVKPSETLSLTCTVSGGSLSSSSYYWGWIRQPPGKGLEWIGSIYYSGNTYYNPSLKSRVTISVDTSKNQFSLKLSSVTAADTAVYYCARRRYDYGDYGRFDPWGQGTLVIVSS
chain 2: QSVLTQPPSVSGAPGQRVTISCTGSSSNIGAGYDVHWYQHLPGTAPKLLIYDNTNRPSGVPDRFSGSKSGTSASLAITGLQAEDEADYYCQSYDISLSGSVFGGGTKLTVL
As for B5, the “pseudovirus neutralization IC50” value in assay [1] was more than 10 µg/mL; in assay [2], 0.0628 µg/mL; in assay [3], 0.00697 µg/mL; in assay [4], 0.0105 µg/mL; in [5], 0.00106 µg/mL; in [6] it was 0.00901 µg/mL. Also, the “pseudovirus neutralization IC50” value in assay [7] was 0.00493 µg/mL; in [8], 0.009 µg/mL; in [9] it was 0.00812 µg/mL; in [10] it was 0.00842 µg/mL; in assay [11], more than 10 µg/mL.

B6: BD56-351 (protein)
chain 1: QVTLRESGPALVKPTQTLTLTCTFSGFSLSTSGMCVSWIRQPPGKALEWLALIDWDDDKYYSTSLKTRLTISKDTSKNQVVLTMTDMDPVDTATYYCARMGAGSREYAMDVWGQGTTVTVSS
chain 2: SYELTQPPSVSVSPGQTARITCSGDALPIQYAYWYQQKPGQAPVLVIYKDNERPSGIPERFSGSSSGTTVTLTISAVQAEDEADYYCQSADSSGTYPVVFGGGTKLTVL
For the molecule B6, the “pseudovirus neutralization IC50” value in [1] worked out at 0.0163 µg/mL; in assay [2], 0.965 µg/mL; in assay [3], 0.644 µg/mL; in assay [4], 0.615 µg/mL; in assay [5], 1.87 µg/mL; in assay [6], 0.433 µg/mL. Moreover, the “pseudovirus neutralization IC50” value in assay [7] was more than 10 µg/mL; in assay [8], 0.618 µg/mL; in assay [9], 0.875 µg/mL; in [10] it was more than 10 µg/mL; in assay [11] it was more than 10 µg/mL.

B7: BD57-0332 (protein)
chain 1: QLQLQESGPGLVKPSATLSLTCNVSGGSISSSIYWWAWIRQSPGMGLEWIGSIYNNGNTYYNPSLKSRVTILVDTSKNHFSLKVTSVTAQDTAVYFCARHTGGTSLLTGFAPWGQGTLVTVSS
chain 2: DIHMTQSPSSVSASVGDRVTITCRASQALSSWLAWYQQRPGKPPTLLIYPASTLQSGVPSRFSGSESGTDFTLTISSLQPEDFATYYCQQANSFPLTFGGGTKVEIK
With B7, the “pseudovirus neutralization IC50” value in assay [1], in [2], in assay [3], in assay [4], in assay [5] and in [6] was more than 10 µg/mL in each case. The “pseudovirus neutralization IC50” value in [7], in assay [8], in [9], in [10] and in [11] was more than 10 µg/mL throughout.

B8: BD57-0318 (protein)
chain 1: QITLKESGPTLVKPTQTLTLTCTFSGFSLSTSGVGVGWIRQPPGKALEWLALIFWDDDKRYSPSLKSRLTITKDTSKNQVVLTMANMDPVDTATYYCAHSGHLLWFDSLFFDYWGQGTLVTVSS
chain 2: ERVMTQSPATMSVSPGERATLSCRASQSVSSNLAWYQQKPGQAPRLLIYGASTRATGIPARFSGSGSGTEFTLTISSLQSEDFAVYYCQQYNNWPPAFGPGTKVDIK
For the molecule B8, the “pseudovirus neutralization IC50” value in [1], in [2], in assay [3], in [4], in [5] and in [6] was more than 10 µg/mL throughout. The “pseudovirus neutralization IC50” value in [7], in assay [8], in assay [9], in assay [10] and in assay [11] was more than 10 µg/mL each time.

B9: BD56-236 (protein)
chain 1: EVQLVQSGAEVKKPGESLKISCEASGYTFTNFWIAWVRQMPGKGLEWMGFIYPGDSDTRYSPSFQGQVTISADKSISTAYLQWSSLKASDTAMYYCARSDYFYDMDVWGQGTTVTVSS
chain 2: DIVMTQTPLSLSVTPGQPASISCKSSQSLLQSDGNTYLYWFLQKPGQSPQLLIYEVSSRFSGVPDRFSGSGSGTDFTLKISRVEAEDVGVYYCMQGIHLPPTFGQGTKVEIK
On to B9, for which the “pseudovirus neutralization IC50” value in assay [1] was found to be 0.000842 µg/mL; in [2], 0.00265 µg/mL; in assay [3] it was 0.0174 µg/mL; in [4] it was 0.018 µg/mL; in assay [5] it was 0.00349 µg/mL; in [6], 0.0217 µg/mL. Further, the “pseudovirus neutralization IC50” value was 7.8 µg/mL in assay [7]; 0.0298 µg/mL in assay [8]; 0.0157 µg/mL in [9]; more than 10 µg/mL in assay [10]; more than 10 µg/mL in assay [11].

B10: BD57-0383 (protein)
chain 1: QMQLVQSGPEVKKPGTSVKVSCKASGFTFTSSAIQWVRQARGQRLEWIGWIVVGSGNTNYAQKFQERVTITRDMSTSTVYMELSSLRSEDTAVYYCVAGGYSGYGALDYWGQGTLVTVSS
chain 2: not shown
On to B10, for which the “pseudovirus neutralization IC50” value in [1] was more than 10 µg/mL; in assay [2] it was more than 10 µg/mL; in assay [3], 0.381 µg/mL; in assay [4], 0.383 µg/mL; in assay [5], 0.282 µg/mL; in assay [6] it was 0.861 µg/mL. The “pseudovirus neutralization IC50” value is 0.59 µg/mL in assay [7]; 0.482 µg/mL in [8]; 0.627 µg/mL in [9]; 3.09 µg/mL in assay [10]; more than 10 µg/mL in assay [11].
